The assay has as its target sigma-2 receptor (σ2R, Tmem97) (Homo sapiens, UniProt Q5BJF2). In kind it is binding. The following applies: read-out: Kiσ2R.

Protein sequences, listed by entry. Tags and fused reporters are not part of them.
UniProt Q5BJF2, whole entry, species assumed: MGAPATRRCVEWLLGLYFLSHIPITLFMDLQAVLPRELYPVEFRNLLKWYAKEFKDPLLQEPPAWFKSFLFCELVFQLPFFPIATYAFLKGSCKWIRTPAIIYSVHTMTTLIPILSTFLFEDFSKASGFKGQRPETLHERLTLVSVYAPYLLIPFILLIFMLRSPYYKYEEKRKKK

Structures are written as SMILES.

Take `COc1cccc2c1CCCC2CCCN1CCN(C2CCCCC2)CC1` (stereo not shown) [PB-28]: the Ki was 4 nM.

(Values after paper PMC12172621 (ACS chemical neuroscience, 2024).)
